Results on 1 molecule are retold here after patent US20240336672A1 (INSTITUT PASTEUR, published 2024).

This assay deals with SARS-CoV-2 Omicron subvariant BA.2 RBD (SARS-CoV-2). Description: ELISA [D].

B1: ADG-2 (antibody, V domains shown)
VH: EVQLVESGGGLVKPGGSLRLSCAASGFTFSSYYMNWVRQAPGKGLEWVSSISEDGYSTYYPDSLKGRFTISRDSAKNSLYLQMNSLRADDTAVYYCARDFSGHTAWAGTGFEYWGQGTLVTVSS
VL: QSVLTQPPSVSGAPGQRITISCTGSSSNIGAGYDVHWYQQLPGTAPKLLIYGSSSRNSGVPDRFSGSKSGTSASLAITGLQAEDEADYYCQSYDSSLSVLYTFGTGTKVTVL
On to B1, for which the binding result is on record as “no binding”.
